Assay results taken from patent US20240122867A1, “CORONAL PROTEIN-COATED NANOPARTICLES AND USES THEREOF” (UNIVERSITY OF CENTRAL FLORIDA RESEARCH FOUNDATION, INC., priority 2021, published 2024).

B1: Bridging integrator 2 (protein, UniProt D3Z6Q9 1-489, looked up)
Bridging integrator 2: MAEGKAGGAAGLFAKQMQKKFSRAQEKVLQKLGKTVETKDERFEQSASNFYQQQAEGHKLYKDLKNFLSAVKVMHESSKRVSETLQEVYSSDWDGHEDLKAIVGNNDLLWEDYEEKLADQALRTMENYVSQFSEIKERIAKRGRKLVDYDSARHHLEAVQNAKKKDDAKMAKAEEDFSKAQIVFEDLNQELLEELPILYNSRIGCYVTVFQNISNLRDVFYREMSKLNHNLYEVMSKLEKQHSNKVFVVKGLSSSSRRSLVISPPVQSCAASSPVSPVSPVSPVTSPTSPSATSEPESVSATGEELTSEAGGEDSCESQESLKDEEADEAQSETSSSLPACNGPTPAPASPAAEVGSQEEALSSSAQSPGRGQTGKDTPSPGDVVLRARASSEGAEQSKRAASIQRTSAPPSRPPPPRASGSGSCNAPGSPEGSSQLCSPRASPDASSNPEPAETREKEGAGSSGPEEPRAVSTKSATQASGGLVGLFL
B2: DNA topoisomerase 3-alpha (protein, UniProt O70157 1-1003, looked up)
DNA topoisomerase 3-alpha: MIFPVTLLAFQWHRRPGGRALSRAAMEVAFRGVRKVLCVAEKNDAAKGIADLLSNGRMRRKEGLSKFNKIYEFDYHLYGQNVTMIMTSVSGHLLAHDFQMQFRKWQSCNPLVLFEAEIEKYCPENFIDIKKTLERETHHCQALVIWTDCDREGENIGFEIIHVCKAVKPNLRVLRARFSEITPHAVRTACENLTEPDQRVSDAVDVRQELDLRIGAAFTRFQTLRLQRIFPEVLAEQLISYGSCQFPTLGFVVERFKAIQAFVPEVFHKIKVTHDHKDGTVEFNWKRYRLFNHTACLVLYQLCMEDPMATVVEVRSKPKSKWRPQALDTVELEKLASRKLRINAKETMRIAEKLYTQGYISYPRTETNIFPKDLNLVALVEQQTVDPHWGAFAQTILERGGPTPRNGSKSDQAHPPIHPTKYTSGLQGDDRRLYEFIVRHFLACCSQDAQGQETTVEIDIAQERFVAHGLIILARNYLDVYPYDHWSDKLLPVYEQGSHFQPSTVEMVDGETSPPQLLTEADLIALMEKHGIGTDATHAEHIETIKARMYVGLTSDKRFLPGHLGMGLVEGYDSMGYEMSKPDLRAELEADLKLICEGKKDKFQVLRQQVQKYKQVFIEAVAKAKKLDEALSQYLGERTEMAQQEEIYPAMPEPVRKCPQCNKDMVLKTKKSGGFYLSCMGFPECRSAVWFPDSVLEASRDNSVCSVCQPPPVYRLKLKFKRGSLPPAMPLEFVGCIGGCDETLKEIFGLRFPRALPRASQPSGHLQASQALNRMDSSQHNLSQPLVNRHTRPSKTVAQALLPPTTAGESNSVTCNCGREAVLLTVRKQGPNQGRHFYKCSNGDCNFFLWADSSHSTGGGTPTSASGPPGSSVGCPSSVGSHMDGFGSLGSDSDGGTPCLCGQPAVTRTVQKDGPNKGRQFHTCAKPREQQCGFFQWVDENVAPGSFAAPAWPGGRGKAQRPEAASKRPRAGSSDAGSTVKKPRKCSLCHQPGHTRTFCPQNR
B3: Angiotensinogen (protein, UniProt P11859 25-477, looked up)
Angiotensinogen: DRVYIHPFHLLYHNKSTCAQLENPSVETLPESTFEPVPIQAKTSPVNEKTLHDQLVLAAEKLEDEDRKRAAQVAMIANFVGFRMYKMLNEAGSGASGAILSPPALFGTLVSFYLGSLDPTASQLQTLLDVPVKEGDCTSRLDGHKVLAALRAVQGLLVTQGGSSSQTPLLQSIMVGLFTAPGFRLKHSFVQSLALFTPALFPRSLDLSTDPVLATEKINRFIKAVTGWKMNLPLEGVSTDSTLLFNTYVHFQGTMRGFSQLPGVHEFWVDNSISVSVPMISGTGNFQHWSDAQNNFSVTCVPLGERATLLLIQPHCTSDLDRVEALIFRNDLLTWIENPPPRAIRLTLPQLEIRGSYNLQDLLAEDKLPTLLGAEANLSNIGDTNPRVGEVLNSILLELKAGEEEQPTTSVQQPGSPEALDVTLSSPFLFAIYEQDSGTLHFLGRVNNPQSVV

System: coronal proteins on NPs
Set-up: species or system mouse
Conditions: for V5 Sera_Nanoparticles Quantitative Value (Normalized Total Spectra): HBPE-NPs incubated with IAV day 5 (V5) mouse sera 1 h, 20:1 NP:sera, centrifuged and washed; for V5 Sera Alone (Control) Quantitative Value (Normalized Total Spectra): IAV day 5 (V5) mouse sera alone, no NPs, mass spectrometry protein identification

Molecule	V5 Sera_Nanoparticles Quantitative Value (Normalized Total Spectra)	V5 Sera Alone (Control) Quantitative Value (Normalized Total Spectra)
B1	0	1.8505
B2	0	0.9252
B3	0	0.9252
